Anti-infective test results gathered from many reports (values: NIAID ChemDB through PubChem).

Shared fields: host cell toxicity; cell line: VERO; measure: CC50

CCn is the concentration with n% toxicity to the cells. Rows are shuffled and stem from different studies.

structure | value
Cc1cc(C)c2c(c1)COP(=O)(OC[C@H]1O[C@@H](n3cc(/C=C/Br)c(=O)[nH]c3=O)C[C@@H]1O)O2 | 96.2 µg/mL
CC(C)=CCc1c(O)cc(O)c2c1O[C@H](c1ccc(O)cc1O)CC2=O | 15.5 µg/mL
COc1ccc(-c2cc(=O)c3c(O)cc(O)cc3o2)cc1O | 65 µg/mL
Cc1cccc2c1OP(=O)(OC[C@H]1O[C@@H](n3cc(/C=C/Br)c(=O)[nH]c3=O)C[C@@H]1OC(=O)[C@@H](C)N)OC2 | 90 µg/mL
O=C1C2=C(c3ccccc31)C(c1ccc([N+](=O)[O-])cc1)NC(=S)N2 | >10 µg/mL
CCOC(=O)CCc1ccccc1OP(=O)(N[C@@H](C)C(=O)OC(C)C)OC[C@H]1O[C@@H](n2cnc3c(N)nc(N)nc32)[C@](C)(O)[C@@H]1O | >100 µM
C=C(C)[C@@H]1CC[C@]2(C(=O)O)CC[C@]3(C)C(CCC4[C@@]5(C)CC[C@H](O)C(C)(C)C5CC[C@]43C)C12 | 78.5 µg/mL
Nc1ncnc2c([C@H]3CC[C@@H](CCl)O3)[nH]nc12 | 400 µg/mL
O=c1c2cnn(-c3ccccc3)c2nc2n1N=C(c1ccc(Br)cc1)CN2c1ccccc1 | 100 µg/mL
Nc1cccc(-c2c3nc(c(-c4cccc(N)c4)c4ccc([nH]4)c(-c4cccc(N)c4)c4nc(c(-c5cccc(N)c5)c5ccc2[nH]5)C=C4)C=C3)c1 | 6.6 µM
COc1c2c(cc3ccoc13)C(=O)[C@@]1(O)c3cc4c(cc3OC[C@H]1O2)OCO4 | 50 µg/mL
NC(=S)NN=C1CCCCCCC1 | 20.71 µg/mL
O=c1cnn([C@@H]2O[C@H](CO)[C@@H](O)[C@H]2O)c(=O)[nH]1 | 143 µg/mL
CC(C)OC(=O)CCc1ccccc1O[P@@](=O)(N[C@@H](C)C(=O)OC(C)C)OC[C@H]1O[C@@H](n2cnc3c(N)nc(N)nc32)[C@](C)(O)[C@@H]1O | >100 µM
Cc1ccc(C(=O)Nc2ccc(S(=O)(=O)O)c3cc(S(=O)(=O)O)cc(S(=O)(=O)O)c23)cc1NC(=O)c1cccc(NC(=O)Nc2cccc(C(=O)Nc3cc(C(=O)Nc4ccc(S(=O)(=O)O)c5cc(S(=O)(=O)O)cc(S(=O)(=O)O)c45)ccc3C)c2)c1 | 80 µg/mL
N#Cc1c(NC(=S)Nc2ccccc2)nc2[nH]c(=O)[nH]c(=O)c2c1-c1ccc(Br)cc1 | 50 µg/mL
CN=C(NN(C)C)c1ccc(NC(=O)c2ccc(C(=O)Nc3ccc(C(=NC)NN(C)C)cc3)cc2)cc1 | >50 µg/mL
Nc1ncnc2c1ncn2[C@H]1C[C@@H](O)[C@@H](CO)O1 | 400 µg/mL
C=CC(O)C#CC#CC(O)/C=C\CCCCCCC | >120 µg/mL
Cc1cccc2c1OP(=O)(OC[C@H]1O[C@@H](n3cc(/C=C/Br)c(=O)[nH]c3=O)C[C@@H]1OC(=O)[C@H](N)CC(C)C)OC2 | 72.2 µg/mL
Nc1ccn([C@@H]2CS[C@@H](CO)O2)c(=O)n1 | >100 µM
CCCOC(=O)C(CCSC[C@H]1O[C@@H](n2ccc3c(N)ncnc32)[C@H](O)[C@@H]1O)NC(=O)COC | 70 µg/mL
CC(=O)OC1C2(CC3N4C(=O)C5(CO)SSC4(CC31O)C(=O)N5C)OC(C)C(C)(C)C2=O | 0.48 µg/mL
Nc1nccc2c1ncn2[C@@H]1O[C@H](CO)[C@@H](O)[C@H]1O | 400 µg/mL
CC1(C)[C@@H](O[C@H]2O[C@H](C(=O)O)[C@@H](O)[C@H](O)[C@H]2O[C@@H]2O[C@H](C(=O)O)[C@@H](O)[C@H](O)[C@H]2O)CC[C@]2(C)[C@H]3C(=O)C=C4[C@@H]5C[C@@](C)(C(=O)O)CC[C@]5(C)CC[C@@]4(C)[C@]3(C)CC[C@@H]12 | 2418 µg/mL
COC1=CC([C@@H]2c3cc4c(cc3[C@H](OC(C)=O)[C@@H]3COC(=O)[C@H]32)OCO4)=CC(=O)C1=O | >23 µg/mL
Nc1ccc(-c2c3nc(c(-c4ccc(N)cc4)c4ccc([nH]4)c(-c4ccc(N)cc4)c4nc(c(-c5ccc(N)cc5)c5ccc2[nH]5)C=C4)C=C3)cc1 | 1.6 µM
Clc1ccc2nnnn2n1 | 0.71 µg/mL
CCc1cn([C@H]2C[C@H](N)[C@@H](CO)O2)c(=O)[nH]c1=O | >2000 µM
CCOC(=O)Nc1nc(N)c2c(n1)NCCC(c1ccccc1)=N2 | >200 µg/mL
OC(c1cc(-c2ccccc2)nc2c(Cl)cc(Cl)cc12)C1CCCCN1 | 1.5 µg/mL
COC(=O)[C@@H]1[C@H](c2cc(OC)c3nc4ccccc4nc3c2)c2cc3c(cc2C2=NOC[C@@H]21)OCO3 | 120 µg/mL
C[C@@]1(CO)[C@H](O)CC[C@@]2(C)[C@H]1CC[C@H]1C[C@@H]3C[C@@]12CC[C@]3(O)CO | 220 µg/mL
O=c1[nH]cnc2c([C@@H]3O[C@H](CO)[C@@H](O)[C@H]3O)[nH]nc12 | 25 µg/mL
Nc1ccccc1-c1c2nc(c(-c3ccccc3N)c3ccc([nH]3)c(-c3ccccc3N)c3nc(c(-c4ccccc4N)c4ccc1[nH]4)C=C3)C=C2 | 41.8 µM
O=c1[nH]c(=O)c2c(-c3cccc([N+](=O)[O-])c3)c3c(=O)[nH]cnc3nc2[nH]1 | 50 µg/mL
Cc1c(CN2CCSCC2)cc(-c2ccc(F)cc2)n1-c1ccc(F)cc1 | 8 µg/mL
[N-]=[N+]=N[C@H]1C[C@H](n2cc(/C(I)=C\I)c(=O)[nH]c2=O)O[C@@H]1CO | 52.3 µM
Nc1nc(F)nc2c1ncn2[C@H]1CS[C@@H](CO)O1 | 5.6 µM
COc1cc([C@H]2OC[C@]3(O)[C@@H](c4ccc(O)c(OC)c4)OC[C@]23O)ccc1O | 13 µg/mL
CCCCCCOCCN1CCN(CCCN2c3ccccc3Sc3ccc(C(F)(F)F)cc32)CC1.Cl.Cl | 5.31 µg/mL
Nc1ncnc2c1c(Br)cn2[C@@H]1O[C@H](CO)[C@@H](O)[C@H]1O | 0.1 µg/mL
Nc1nc(F)nc2c1ncn2[C@@H]1CS[C@@H](CO)O1 | 45.4 µM
Cc1cccc2c1OP(=O)(OC[C@H]1O[C@@H](n3cc(/C=C/Br)c(=O)[nH]c3=O)C[C@@H]1OC(=O)CN)OC2 | 38.2 µg/mL
C=CC(O)C#CC#CC(O)C1OC1CCCCCCC | >120 µg/mL
NC(=O)c1[nH]nc([C@@H]2O[C@H](CO)[C@@H](O)[C@H]2O)c1O | 91 µg/mL
CC1(C)OCC([C@H]2O[C@@H]3OC(C)(C)O[C@@H]3/C2=N/NC(=O)c2cc3cc(OCc4ccccc4)ccc3[nH]2)O1 | 5.9 µg/mL
N#Cc1c(N)nc2[nH]c(=O)[nH]c(=O)c2c1-c1ccc(Br)cc1 | 200 µg/mL
Nc1ncnc2c1ncn2[C@@H]1O[C@H](CO)C[C@H]1O | 200 µg/mL
O=C1C2=Nc3ccncc3CN2c2ccc(Cl)cc21 | 2 µg/mL
O=C1c2cc3ccoc3cc2O[C@@H]2COc3cc4c(cc3[C@H]12)OCO4 | >50 µg/mL
COc1cc(-c2cc(=O)c3c(O)cc(O)cc3o2)cc(OC)c1O | 20.2 µg/mL
CCOC(=O)[C@H](C)N[P@](=O)(OC[C@H]1O[C@@H](n2cnc3c(N)nc(N)nc32)[C@](C)(O)[C@@H]1O)Oc1ccccc1CCC(=O)OC(C)C | >100 µM
O=c1[nH]c(=O)n([C@H]2C[C@H](O)[C@@H](COP3(=O)OCc4cc5ccccc5cc4O3)O2)cc1/C=C/Br | 56.8 µg/mL
O=C1c2c(O)cccc2-c2nn(CCNCCO)c3ccc(NCCNCCO)c1c23 | 3.43 µg/mL
c1ccc2c(CNc3ccc(N4CCSCC4)cc3)cccc2c1 | 4 µg/mL
Nc1cc2c(ncn2[C@@H]2O[C@H](CO)[C@@H](O)[C@H]2O)c(=O)[nH]1 | 32 µg/mL
CC(C)OC(=O)CCc1ccccc1OP(=O)(N[C@@H](C)C(=O)OC(C)C)OC[C@H]1O[C@@H](n2cnc3c(N)nc(N)nc32)[C@](C)(O)[C@@H]1O | >100 µM
O=c1[nH]c(=O)n([C@H]2C[C@H](O)[C@@H](COP3(=O)OCc4c(Cl)cccc4O3)O2)cc1/C=C/Br | 82.3 µg/mL
c1ccc2c(c1)nnn1c3cnccc3nc21 | 3 µg/mL
CC[C@H](C)[C@H](N)C(=O)O[C@H]1C[C@H](n2cc(/C=C/Br)c(=O)[nH]c2=O)O[C@@H]1COP1(=O)OCc2cccc(C)c2O1 | 60.6 µg/mL
CCCCCCCCCCCCCCCCCCNC(=S)/N=C/C(C(=O)Nc1ccccc1C)=C(\C)O | 2.29 µg/mL
O=c1[nH]c(=O)n([C@@H]2O[C@H](CO)[C@@H](O)[C@H]2O)cc1F | 0.32 µg/mL
COc1cc([C@H]2OC[C@]3(O)[C@@H](c4ccc(O)c(OC)c4)OC[C@H]23)ccc1O | 96.9 µg/mL
O=C1C(=O)c2cccnc2-c2ncccc21 | 3 µg/mL
Nc1ccn([C@H]2CS[C@@H](CO)O2)c(=O)n1 | >100 µM
O=C1C=C[C@@H](COC2OC(CO)C(O)C(O)C2O)O1 | 0.7 µg/mL
COc1ccc(-c2c(C#N)c(NC(=O)Nc3ccccc3)nc3[nH]c(=O)[nH]c(=O)c23)c(OC)c1 | 47 µg/mL
COc1ccc2cc1Oc1ccc(cc1)CC1c3c(cc(OC)c4c3Oc3cc5c(cc3O4)CCNC5C2)CCN1C | 1.45 µg/mL
Cc1c(CN2CCSCC2)cc(-c2ccc(F)cc2)n1-c1ccc(Cl)cc1 | 8 µg/mL
COC(=O)[C@H]1[C@@H]2CON=C2c2cc3c(cc2[C@H]1C1=CC(=O)C(=O)C(OC)=C1)OCO3 | >120 µg/mL
O=c1c2cnn(-c3ccccc3)c2nc(Nc2ccccc2)n1NC(=S)Nc1ccccc1 | 220 µg/mL
CCCOC(=O)C(CCSC[C@H]1O[C@@H](n2ccc3c(N)ncnc32)[C@H](O)[C@@H]1O)NC(=O)C(F)(F)F | >200 µg/mL
COc1cc([C@@H]2c3cc4c(cc3[C@H](OC(C)=O)[C@@H]3COC(=O)[C@H]23)OCO4)cc2c1OCCO2 | >25 µg/mL
COc1cc(OC)c(NC(=O)NNC(=O)C(=O)NC2CC2)cc1Cl | >100 µg/mL
CC(C)(C)c1cc(-c2c3nc(c(-c4cc(C(C)(C)C)c(O)c(C(C)(C)C)c4)c4ccc([nH]4)c(-c4cc(C(C)(C)C)c(O)c(C(C)(C)C)c4)c4nc(c(-c5cc(C(C)(C)C)c(O)c(C(C)(C)C)c5)c5ccc2[nH]5)C=C4)C=C3)cc(C(C)(C)C)c1O | >100 µM
O=C1c2cc3ccoc3cc2O[C@@H]2COc3cc4c(cc3[C@]12O)OCO4 | >50 µg/mL
COc1cc([C@@H]2c3cc4c(cc3[C@H](OC(C)=O)[C@@H]3COC(=O)[C@@H]23)OCO4)cc2nccnc12 | >25 µg/mL
CC1(C)CC[C@]2(C(=O)O)CC[C@]3(C)C(=CCC4[C@@]5(C)CC[C@H](O)C(C)(C)C5CC[C@]43C)C2C1 | 82.9 µg/mL
O=c1c2cnn(-c3ccccc3)c2nc2n1N=C(c1ccc(F)cc1)CN2c1ccccc1 | 220 µg/mL
Cc1ccc(N2C(c3ccccc3)=CC(=C3C=CC(=O)C=C3)C=C2c2ccccc2)cc1 | 13 µg/mL
CCc1cn([C@H]2C[C@H](O)[C@@H](COP(=O)(O)C(N)=O)S2)c(=O)[nH]c1=O | >1300 µM
Oc1ccccc1-c1c2nc(c(-c3ccccc3O)c3ccc([nH]3)c(-c3ccccc3O)c3nc(c(-c4ccccc4O)c4ccc1[nH]4)C=C3)C=C2 | 5.3 µM
FC(F)(F)c1[nH]nc(-c2cc3ccccc3o2)c1N=NN1CCOCC1 | <1.84 µg/mL
CC(=O)CCC(=O)O[C@H]1C[C@H](n2cc(/C=C/Br)c(=O)[nH]c2=O)O[C@@H]1COP1(=O)OCc2cccc(C)c2O1 | 72.7 µg/mL
O=c1[nH]c(=O)n([C@H]2C[C@H](F)[C@@H](CO)O2)cc1/C(I)=C/I | 82.7 µM
NNC(=O)c1nc(N)n[nH]1 | 8.6 µg/mL
COCC(=O)NC(CCSC[C@H]1O[C@@H](n2ccc3c(N)ncnc32)[C@H](O)[C@@H]1O)C(=O)O | >400 µg/mL
Cc1cc(/C=N/NC(N)=S)c(C)c2c1oc1ccccc12 | 22.03 µg/mL
[N-]=[N+]=N[C@H]1C[C@H](n2cc(/C(Br)=C\I)c(=O)[nH]c2=O)O[C@@H]1CO | 27.7 µM

A second listing of 9 rows from above:

structure	value
N#Cc1c(N)nc2[nH]c(=O)[nH]c(=O)c2c1-c1ccc(Br)cc1	200 µg/mL
COc1cc(-c2cc(=O)c3c(O)cc(O)cc3o2)cc(OC)c1O	20.2 µg/mL
CCc1cn([C@H]2C[C@H](N)[C@@H](CO)O2)c(=O)[nH]c1=O	>2000 µM
CN=C(NN(C)C)c1ccc(NC(=O)c2ccc(C(=O)Nc3ccc(C(=NC)NN(C)C)cc3)cc2)cc1	>50 µg/mL
Nc1ncnc2c1ncn2[C@H]1C[C@@H](O)[C@@H](CO)O1	400 µg/mL
Cc1cc(/C=N/NC(N)=S)c(C)c2c1oc1ccccc12	22.03 µg/mL
OC(c1cc(-c2ccccc2)nc2c(Cl)cc(Cl)cc12)C1CCCCN1	1.5 µg/mL
CCOC(=O)Nc1nc(N)c2c(n1)NCCC(c1ccccc1)=N2	>200 µg/mL
Nc1ccccc1-c1c2nc(c(-c3ccccc3N)c3ccc([nH]3)c(-c3ccccc3N)c3nc(c(-c4ccccc4N)c4ccc1[nH]4)C=C3)C=C2	41.8 µM